According to PMC4484790 (Virology, 2014):

Legend:
[1] = PK of orally administered MVC in plasma and mucosal tissues of hu-mice; assay type: in vivo
[2] = PK of orally administered MVC in plasma and mucosal tissues of non-hu mice; assay type: in vivo, non-humanized mice
[3] = intestinal tissue, MVC oral 62 mg/kg x 5 days
[4] = plasma, MVC oral 62 mg/kg x 5 days
[5] = plasma, MVC oral gavage 62 mg/kg daily for 5 days, post-last dose
[6] = rectal tissue, MVC oral 62 mg/kg x 5 days
[7] = vaginal tissue, MVC oral 62 mg/kg x 5 days

## Maraviroc [MVC]
[1]; [3]
  AUC24h: 140,159 ng * h/g
  Half-life (t½): 1.2 h
  Tmax: 4 h
[1]; [4]
  AUC24h: 488.6 ng·h/mL
  AUC48h: 0.755 µg·h/mL
  Half-life (t½): 1 h
  Tmax: 4 h
[1]; [5]
  Cmax (median): 0.102 µg/mL
[1]; [6]
  AUC24h: 32,690 ng * h/g
  Half-life (t½): 1.5 h
  Tmax: 4 h
[1]; rectal tissue:blood plasma, MVC oral 62 mg/kg x 5 days
  RT:BP AUC ratio: 66.9
[1]; [7]
  AUC24h: 2,461 ng * h/g
  Half-life (t½): 2.6 h
  Tmax: 4 h
[1]; vaginal tissue:blood plasma, MVC oral 62 mg/kg x 5 days
  AUC24h VT:BP ratio: 5
[2]; [3]
  AUC24h: 134,883 ng * h/g
  Half-life (t½): 2.7 h
  Tmax: 4 h
[2]; intestinal tissue:plasma, MVC oral 62 mg/kg x 5 days
  AUC24h tissue:plasma ratio: 43.8
[2]; [4]
  AUC48h: 3,280 ng * h/ml
  Tmax: 4 h
[2]; plasma, MVC oral 62 mg/kg x 5 days, 62 mg/kg
  Half-life (t½): 20 h and 20.1 h
[2]; [5]
  Cmax (median): 0.113 µg/mL
[2]; [6]
  AUC24h: 69,301 ng * h/g
  Half-life (t½): 2.9 h
  Tmax: 4 h
[2]; rectal tissue:plasma, MVC oral 62 mg/kg x 5 days
  AUC24h tissue:plasma ratio: 22.5
[2]; [7]
  AUC24h: 11,239 ng * h/g
  Half-life (t½): 3.7 h
  Tmax: 4 h
[2]; vaginal tissue:plasma, MVC oral 62 mg/kg x 5 days, 62 mg/kg
  AUC24h tissue:plasma ratio: 3.65

Several values for one entry are separate records, joined by “and”; a condition that tells them apart may be missing. Identical values can stand only once.
